Anti-infective test results gathered from many reports (values: NIAID ChemDB through PubChem).

Shared fields: whole-cell or culture tests; organism: Hepatitis C virus; measure: EC50

An empty or dashed field is not shown. ECn: concentration that inhibits the pathogen or its effect by n%. Two numbers with a dash give a range or band. Lines come from different laboratories, so protocols vary.

SMILES,cells,conditions,method,strain,value
C=CC1CC1(NC(=O)[C@@H]1C[C@@H](OC(=O)Nc2cc(C(C)=O)ccc2N2CCCCC2)CN1C(=O)[C@@H](NC(=O)OC(C)(C)C)C(C)(C)C)C(=O)NS(=O)(=O)C1CC1,Huh7,-,replicon,1b,<0.1 µM
Cc1nc(C(=O)N2c3cccc(O)c3NC3=C(C(=O)CC(C)(C)C3)C2c2ccc(OCc3ccccc3)cc2F)c(-c2ccccc2)o1,-,-,luciferase / reporter gene / replicon,1b,0.83 µM
COC(=O)N[C@@H](C(=O)N1CCC[C@H]1c1ncc(-c2ccc(-c3ccc(-c4cnc([C@@H]5CCCN5C(=O)Cc5ccccc5)[nH]4)cc3)cc2)[nH]1)c1ccccc1,-,-,-,1b,0.001–0.099 µM
CC(C)C(=O)N1c2cccc(O)c2NC2=C(C(=O)CC(C)(C)C2)[C@@H]1c1ccc(O[C@H](C)c2ccccc2)cc1F,-,-,luciferase / reporter gene / replicon,1b,3.63 µM
Nc1ncnc2c1ncn2[C@@H]1O[C@H](/C=C/P(=O)(O)O)[C@@H](O)[C@H]1O,-,-,replicon,-,>100 µM
CN(C)[C@@H](C(=O)N1CCC[C@@H]1c1ncc(-c2ccc(-c3cnc(-c4cnc([C@H]5CCCN5C(=O)[C@@H](c5ccccc5)N(C)C)[nH]4)cn3)cc2)[nH]1)c1ccccc1,-,-,-,1b,0.001–0.099 µM
C=CC1CC1(NC(=O)[C@@H]1C[C@@H](OC(=O)Nc2cc(C(F)(F)F)ccc2N2CCCC2)CN1C(=O)[C@@H](NC(=O)OC(C)(C)C)C(C)(C)C)C(=O)NS(=O)(=O)C1CC1,Huh7,-,replicon,1b,0.1–1 µM
NC(=S)Nc1cccc(OCCCCCc2cccc3ccccc23)c1,Ava5-EG(delta4AB)SEAP,-,reporter gene / fluorescence,-,0.001–1 µM
C=CC1CC1(NC(=O)[C@@H]1C[C@@H](Oc2cc(-c3ccccc3)nc3cc(OC)ccc23)CN1C(=O)[C@@H](CC(=O)N1CCC(CNC(=O)OC(C)(C)C)CC1)C(C)(C)C)C(=O)O,-,-,replicon,-,1–10 µM
COC(=O)N[C@@H](C(=O)N1CCC[C@H]1c1ncc(-c2ccc(-c3ccc(-c4cnc([C@@H]5CCCN5C(=O)[C@H](c5ccccc5)N(C)C)[nH]4)cc3C)cc2)[nH]1)c1ccccc1,-,-,-,1b,0.00001–0.000999 µM
CC(C)(C)OC(=O)N1CCC(NC(=O)c2ccc3c(c2)nc(-c2ccoc2)n3C2CCCCC2)(C(=O)Nc2ccc(/C=C/C(=O)O)cc2)CC1,Huh7,-,-,-,≤5 µM
CO[C@@H]1[C@H](O)[C@@H](/C=C/P(=O)(O)O)O[C@H]1n1cnc2c(=O)[nH]c(N)nc21,-,-,replicon,-,>100 µM
C=CC1CC1(NC(=O)[C@@H]1C[C@@H](Oc2cc(-c3ccccc3)nc3cc(OC)ccc23)CN1C(=O)[C@@H](CC(=O)N1CCCC1)C(C)(C)C)C(=O)OCC,-,-,replicon,-,>10 µM
COC(=O)N[C@H](C(=O)N1CCC[C@@H]1c1ncc(-c2ccc(-c3ncc(-c4cnc([C@H]5CCCN5C(=O)[C@@H](NC(=O)OC)C(C)C)[nH]4)cn3)cc2)[nH]1)C(C)C,-,-,-,1b,0.00001–0.000999 µM
C=CC1CC1(NC(=O)[C@@H]1C[C@@H](OC(=O)Nc2ccccc2[N+](=O)[O-])CN1C(=O)[C@@H](NC(=O)OC(C)(C)C)C(C)(C)C)C(=O)NS(=O)(=O)C1CC1,Huh7,-,replicon,1b,0.1–1 µM
NC(=S)Nc1ccc2c(c1)Cc1cc(NC(=O)c3ccno3)ccc1-2,Ava5-EG(delta4AB)SEAP,-,reporter gene / fluorescence,-,0.001–1 µM
C=CC1CC1(NC(=O)[C@@H]1C[C@@H](OC(=O)N(CC)CC)CN1C(=O)[C@@H](NC(=O)OC(C)(C)C)C(C)(C)C)C(=O)NS(=O)(=O)C1CC1,Huh7,-,replicon,1b,1–10 µM
C[C@@H](NC(=O)c1ccc2c(c1)nc(-c1ccccn1)n2C1CCCCC1)C(=O)Nc1ccc(/C=C/C(=O)O)cc1,Huh7,-,-,-,≤5 µM
NC(=S)Nc1cccc(OCCCCCCOc2ccccc2)c1,Ava5-EG(delta4AB)SEAP,-,reporter gene / fluorescence,-,0.001–1 µM
CCCCn1c(=O)c2ccccc2c2cc(C(O)(C(F)(F)F)C(F)(F)F)c3c(c21)OCO3,Huh7.5.1,-,PCR,2a,14 µM
C=CC1CC1(NC(=O)[C@@H]1C[C@@H](OC(=O)Nc2ccccn2)CN1C(=O)[C@@H](NC(=O)OC(C)(C)C)C(C)(C)C)C(=O)NS(=O)(=O)C1CC1,Huh7,-,replicon,1b,>10 µM
CC1(C)CC(=O)C2=C(C1)Nc1c(O)cccc1N(C(=O)CCC(=O)Nc1ccc(-n3cccc3)cc1)[C@@H]2c1ccc(OCc2ccccc2)cc1Cl,-,-,luciferase / reporter gene / replicon,1b,1.85 µM
O=C(N[C@@H](C(=O)N1CCC[C@H]1c1ncc(-c2ccc(-c3ccc(-c4cnc([C@@H]5CCCN5C(=O)[C@H](NC(=O)C5CC5)c5ccccc5)s4)cc3)cc2)s1)c1ccccc1)C1CC1,Huh7.5,-,luciferase,genotype 2a JFH1,0.0002288 µM
C=CC1CC1(NC(=O)[C@@H]1C[C@@H](OC(=O)Nc2cc(C(F)(F)F)ccc2N2CCC(C(F)(F)F)CC2)CN1C(=O)[C@@H](NC(=O)OC(C)(C)C)C(C)(C)C)C(=O)NS(=O)(=O)C1CC1,Huh7,-,replicon,1b,<0.1 µM
O=C(O)c1ccc2c(C3CCCCC3)c3n(c2c1)CCNc1ccccc1-3,Huh7,10% FBS,replicon,-,0.57 µM
C[C@H](NC(=O)[C@@H](c1ccccc1)N(C)C)c1ncc(-c2ccc(-c3ccc(-c4cnc([C@H]5CCCN5C(=O)[C@@H](c5ccccc5)N(C)C)[nH]4)nn3)cc2)[nH]1,-,-,-,1b,0.001–0.099 µM
C=CC1CC1(NC(=O)[C@@H]1C[C@@H](OC(=O)Nc2cc(C)ccc2-n2nccn2)CN1C(=O)[C@@H](NC(=O)OC(C)(C)C)C(C)(C)C)C(=O)NS(=O)(=O)C1CC1,Huh7,-,replicon,1b,<0.1 µM
Nc1nc(N)c2ncn([C@@H]3O[C@H](/C=C/P(=O)(O)O)C[C@H]3O)c2n1,-,-,replicon,-,>100 µM
C=CC1CC1(NC(=O)[C@@H]1C[C@@H](OC(=O)Nc2cc(Cl)ccc2C)CN1C(=O)[C@@H](NC(=O)OC(C)(C)C)C(C)(C)C)C(=O)NS(=O)(=O)C1CC1,Huh7,-,replicon,1b,1–10 µM
NC(=S)Nc1cccc(OCCCCOc2ccccc2-c2ccccc2)c1,Ava5-EG(delta4AB)SEAP,-,reporter gene / fluorescence,-,0.001–1 µM
CC1(C)CC(=O)C2=C(C1)Nc1c(O)cccc1NC2/C=C/c1ccccc1[N+](=O)[O-],-,-,luciferase / reporter gene / replicon,1b,>32 µM
CCCCOC(=O)[C@H](C)NP(=O)(/C=C/[C@@H]1C[C@@H](O)[C@H](n2cnc(C(N)=O)n2)O1)N[C@@H](C)C(=O)OCCCC,-,-,replicon,-,>100 µM
O=C(O)/C=C/c1ccc(NC(=O)C2(NC(=O)c3ccc4c(c3)nc(-c3ccoc3)n4C3C[C@H]4CC[C@@H]3C4)CCCC2)cc1,Huh7,-,-,-,≤5 µM
CN(C)CCN1CCn2c(c(C3CCCCC3)c3ccc(C(=O)O)cc32)-c2ccccc21,Huh7,10% FBS,replicon,-,0.053 µM
COC(=O)N[C@@H](C)C(=O)N(C)[C@@H](C)c1ncc(-c2ccc(-c3ccc(-c4nc([C@H]5CCCN5C(=O)[C@H](C)NC(=O)OC)[nH]c4C(F)(F)F)cc3)cc2)[nH]1,-,-,-,1b,0.00001–0.000999 µM
C=C[C@@H]1C[C@]1(NC(=O)c1ccc2c(c1)nc(-c1ccoc1)n2C1CCCCC1)C(=O)Nc1ccc(/C=C/C(=O)O)cc1,Huh7,-,-,-,≤5 µM
CCCCOC(=O)[C@H](C)NP(=O)(/C=C/[C@H]1O[C@@H](n2cnc3c(N)ncnc32)[C@H](F)[C@@H]1O)N[C@@H](C)C(=O)OCCCC,-,-,replicon,-,10–100 µM
NC(=S)Nc1cccc(OCCCCCOc2ccncn2)c1,Ava5-EG(delta4AB)SEAP,-,reporter gene / fluorescence,-,0.001–1 µM
C=CC1CC1(NC(=O)[C@@H]1C[C@@H](Oc2cc(-c3ccccc3)nc3cc(OC)ccc23)CN1C(=O)[C@@H](CC(=O)N1CCCc2ccccc21)C(C)(C)C)C(=O)O,-,-,replicon,-,>10 µM
CN(C)[C@H](C(=O)N1CSC[C@H]1c1ncc(-c2ccc(-c3ccc(-c4cnc([C@@H]5CSCN5C(=O)[C@@H](c5ccccc5)N(C)C)[nH]4)cc3)cc2)[nH]1)c1ccccc1,-,-,-,1b,0.001–0.099 µM
C=C[C@@H]1C[C@]1(NC(=O)[C@@H]1C[C@@H](Oc2cc(-c3ccccc3)nc3cc(OC)ccc23)CN1C(=O)[C@@H](CC(=O)N1CCCCC1)C(C)(C)C)C(=O)NS(=O)(=O)C1CC1,-,-,replicon,-,<100 µM
COc1ccc(C(=O)N2c3cccc(O)c3NC3=C(C(=O)CC(C)(C)C3)[C@@H]2c2ccc(OCc3ccccc3)cc2F)nc1Cl,-,-,luciferase / reporter gene / replicon,1b,1.03 µM
C=CC1CC1(NC(=O)[C@@H]1C[C@@H](OC(=O)Nc2ccccc2CCC)CN1C(=O)[C@@H](NC(=O)OC(C)(C)C)C(C)(C)C)C(=O)NS(=O)(=O)C1CC1,Huh7,-,replicon,1b,1–10 µM

The last 6 rows once more:

SMILES,cells,conditions,method,strain,value
NC(=S)Nc1cccc(OCCCCCOc2ccncn2)c1,Ava5-EG(delta4AB)SEAP,-,reporter gene / fluorescence,-,0.001–1 µM
C=CC1CC1(NC(=O)[C@@H]1C[C@@H](Oc2cc(-c3ccccc3)nc3cc(OC)ccc23)CN1C(=O)[C@@H](CC(=O)N1CCCc2ccccc21)C(C)(C)C)C(=O)O,-,-,replicon,-,>10 µM
CN(C)[C@H](C(=O)N1CSC[C@H]1c1ncc(-c2ccc(-c3ccc(-c4cnc([C@@H]5CSCN5C(=O)[C@@H](c5ccccc5)N(C)C)[nH]4)cc3)cc2)[nH]1)c1ccccc1,-,-,-,1b,0.001–0.099 µM
C=C[C@@H]1C[C@]1(NC(=O)[C@@H]1C[C@@H](Oc2cc(-c3ccccc3)nc3cc(OC)ccc23)CN1C(=O)[C@@H](CC(=O)N1CCCCC1)C(C)(C)C)C(=O)NS(=O)(=O)C1CC1,-,-,replicon,-,<100 µM
COc1ccc(C(=O)N2c3cccc(O)c3NC3=C(C(=O)CC(C)(C)C3)[C@@H]2c2ccc(OCc3ccccc3)cc2F)nc1Cl,-,-,luciferase / reporter gene / replicon,1b,1.03 µM
C=CC1CC1(NC(=O)[C@@H]1C[C@@H](OC(=O)Nc2ccccc2CCC)CN1C(=O)[C@@H](NC(=O)OC(C)(C)C)C(C)(C)C)C(=O)NS(=O)(=O)C1CC1,Huh7,-,replicon,1b,1–10 µM